# Tested on: P. falciparum
# Experiment: Anti-Plasmodium activity: viability of P. falciparum cultures (pLDH enzyme assay)
# Assay type: cell-based
# Details: ratio of activities: IC50 for CHO cells divided by IC50 for P. falciparum cultures
# Method: P. falciparum cultures were grown in O+ blood obtained by venipuncture of volunteers. Cultures of the laboratory line ItG were maintained by the method of Trager and Jensen (Trager, W.; Jensen, J. Science 1976, 193, 673) using RPM, 1640 supplemented with 10% human serum (a kind gift obtained under ethical consent from the Chemo Day Care department of the Princess Margaret Hospital, Toronto, Canada) and 50 μM hypoxanthine (RPMI-A). The effects of the test compounds on the viability of P. falciparum cultures were determined using a Lactate Dehydrogenase (LDH) enzyme assay specific to the enzyme found in Plasmodium falciparum (pLDH) (Prudhomme, J. G.; Sherman, I. W. J Immunol Methods 1999, 229(1-2), 169; Makler, M. T.; Ries, J. M.; Williams, J. A.; Bancroft, J. E.; Piper, R. C.; Gibbins, B. L.; Hinrichs, D. J. Am J Trop Med Hyg 1993, 48(6), 739). Briefly, compounds to be tested were dissolved in DMSO afford a solution having a concentration of 10 mg/mL. Two-fold serial dilutions were then produced in 50 μL of RPMI-A in a 96 well plate and then 50 μL of parasite culture (2% hematocrit, 2% parasitemia) were added to each well and the plates were then incubated at 37° C. in 95% N2, 3% CO2, and 2% O2 for 72 hr. The contents of the wells were then re-suspended using a multi-channel pipettor and a 15 μL sample was removed from each well and was added to 100 μL of pLDH enzyme assay mixture (Prudhomme, J. G.; Sherman, I. W. J Immunol Methods 1999, 229(1-2), 169). After 1 hr the absorbance of the wells at 650 nm was determined using a ThermoMax microplate reader (Molecular Devices, Sunnyvale, Calif.). The IC50 values of individual compounds were determined using a non-linear regression analysis of the data^19 using the computer program SigmaPlot (Jandel Scientific) and are reported in Table 1. The IC50 values represent the mean±standard error calculated from four independent determinations. To verify if the poor viability of the cultures was related to inhibited merozoite invasion, samples were taken from treated wells and the presence of extracellular merozoites was confirmed by microscopy.
row,Structure (SMILES),IC50 CHO/IC50 P. falciparum
1,"c1ccc(Cn2cc[n+](Cc3ccccc3)c2)cc1 [QT68, 1,3-Dibenzylimidazolium bromide]",11.9
2,"c1ccc(Cn2cc[n+](Cc3ccc4ccccc4c3)c2)cc1 [QT69, 1-Benzyl-3-(naphthalen-2-yl-methyl)imidazolium bromide]",120.0
3,"Cn1cc[n+](C)c1 [QT70, 1,3-Dimethylimidazolium iodide]",1.6
4,"C[n+]1ccn(CCCCCCCCn2cc[n+](C)c2)c1 [QT71, 1,8-Bis-(3-methylimidazolium-1-yl)octane diiodide]",96.2
5,"CCCn1cc[n+](C)c1 [QT73, 3-Methyl-1-propylimidazolium bromide]",4.3
6,"Clc1cccc(Cn2cc[n+](Cc3cccc(Cl)c3)c2)c1 [QT74, 1,3-Bis-(3-chlorobenzyl)imidazolium bromide]",101.3
7,"Brc1ccc(C[n+]2ccn(Cc3ccccc3)c2)cc1 [QT75, 1-Benzyl-3-(4-bromobenzyl)imidazolium bromide]",167.1
8,"Ic1ccc(Cn2cc[n+](Cc3ccc(I)cc3)c2)cc1 [QT78, 1,3-Bis-(4-iodobenzyl)imidazolium bromide]",94.3
9,"COc1ccc(Cn2cc[n+](Cc3ccc(OC)cc3)c2)cc1 [QT79, 1,3-Bis-(4-methoxybenzyl)imidazolium chloride]",6.1
10,"Clc1ccc(Cn2cc[n+](Cc3ccc(Cl)cc3)c2)cc1 [QT80, 1,3-Bis-(4-chlorobenzyl)imidazolium chloride]",11.7
11,"c1ccc2cc(Cn3cc[n+](Cc4ccc5ccccc5c4)c3)ccc2c1 [QT81, 1,3-Bis-(naphthalen-2-yl-methyl)imidazolium bromide]",30.0
12,"Brc1ccccc1Cn1cc[n+](Cc2ccccc2Br)c1 [QT82, 1,3-Bis-(2-bromobenzyl)imidazolium bromide]",89.3
13,"Brc1cccc(Cn2cc[n+](Cc3cccc(Br)c3)c2)c1 [QT83, 1,3-Bis-(3-bromobenzyl)imidazolium bromide]",125.7
14,"O=[N+]([O-])c1ccc(Cn2cc[n+](Cc3ccc([N+](=O)[O-])cc3)c2)cc1 [QT85, 1,3-Bis-(4-nitrobenzyl)imidazolium bromide]",25.2
15,"C[n+]1ccn(CCCCn2cc[n+](C)c2)c1 [QT86, 1,4-Bis-(3-methylimidazolium-1-yl)butane diiodide]",1.8
16,"C[n+]1ccn(CCCCCCn2cc[n+](C)c2)c1 [QT87, 1,6-Bis-(3-methylimidazolium-1-yl)hexane diiodide]",56.2
17,"C[n+]1ccn(CCCCCCCCCCn2cc[n+](C)c2)c1 [QT88, 1,10-Bis-(3-methylimidazolium-1-yl)decane diiodide]",695
18,"C[n+]1ccn(CCCCCCCCCCCCn2cc[n+](C)c2)c1 [QT89, 1,12-Bis-(3-methylimidazolium-1-yl)dodecane diiodide]",2888.9
19,"Clc1ccccc1Cn1cc[n+](Cc2ccccc2Cl)c1 [QT90, 1,3-Bis-(2-chlorobenzyl)imidazolium bromide]",55.0

row,Structure (SMILES),IC50 CHO/IC50 P. falciparum
1,"O=C(Cn1cc[n+](CC(=O)c2ccc(Cl)cc2)c1)c1ccc(Cl)cc1 [QT91, 1,3-Bis-[2-oxo-2-(4-chlorophenyl)ethyl]imidazolium bromide]",20.4
2,"Fc1ccc(Cn2cc[n+](Cc3ccc(F)cc3)c2)cc1 [QT92, 1,3-Bis-(4-fluorobenzyl)imidazolium bromide]",3.3
3,"Brc1ccc(Cn2cc[n+](Cc3ccc4ccccc4c3)c2)cc1 [QT95, 1-(4-Bromobenzyl)-3-(naphthalen-2-ylmethyl)imidazolium bromide]",37.0
4,"O=C(Cn1cc[n+](CC(=O)c2ccc(Cc3ccccc3)cc2)c1)c1ccc(Cc2ccccc2)cc1 [QT97, 1,3-Bis-[2-oxo-2-(4-benzylphenyl)ethyl]imidazolium bromide]",9
5,"C[n+]1ccn(-c2ccc(-c3ccc(-n4cc[n+](C)c4)cc3)cc2)c1 [QT98, 4,4′-Bis-(3-methyl-1H-imidazolium-1-yl)biphenyl diiodide]",1000
6,"C[n+]1ccn(CCCCCCCCCCCCCCCn2cc[n+](C)c2)c1 [QT101, 1,15-Bis-(3-methylimidazolium-1-yl)pentadecane diiodide]",600
7,"O=[N+]([O-])c1ccc(C[n+]2ccn(-c3ccc(-c4ccc(-n5cc[n+](Cc6ccc([N+](=O)[O-])cc6)c5)cc4)cc3)c2)cc1 [QT103, 4,4′-Bis-[3-(4-nitrobenzyl)-1H-imidazolium-1-yl]biphenyl dibromide]",538
8,"Cn1c[n+](C)c(-c2ccccc2)c1-c1ccccc1 [QT104, 1,3-Dimethyl-4,5-diphenyl-1H-imidazolium iodide]",124
9,"c1ccc(Cn2c[n+](Cc3ccccc3)c(-c3ccccc3)c2-c2ccccc2)cc1 [QT105, 1,3-dibenzyl-4,5-diphenyl-1H-imidazolium bromide]",15
10,"C[n+]1ccn(CCCCCCCCCCCCCCn2cc[n+](C)c2)c1 [QT107, 1,14-Bis-(3-methylimidazolium-1-yl)tetradecane diiodide]",3438
11,"C[n+]1ccn(CCCCCCCCCCCCCn2cc[n+](C)c2)c1 [QT109, 1,13-Bis-(3-methylimidazolium-1-yl)tridecane diiodide]",7286
12,"C[n+]1cn(-c2ccc(-c3ccc(-n4c[n+](C)c5ccccc54)cc3)cc2)c2ccccc21 [QT110, 4,4′-Bis-(3-methylbenzimidazolium-1-yl)biphenyl diiodide]",1400
13,"C[n+]1ccn(Cc2ccc(-c3ccc(Cn4cc[n+](C)c4)cc3)cc2)c1 [QT113, 4,4′-Bis-(3-methylimidazolium-1-yl-methyl)biphenyl diiodide]",1042
14,"C[n+]1ccn(-c2ccc(-n3cc[n+](C)c3)cc2)c1 [QT114, 1,4-Bis-(3-methylimidazolium-1-yl)benzene diiodide]",28.3
15,"C[n+]1ccn(CCCCCCCCCCCCCCCCCCCCn2cc[n+](C)c2)c1 [QT116, 1,20-Bis-(3-methylimidazolium-1-yl)eicosane diiodide]",667
16,"C[n+]1ccn(CCCCCCCCCCCn2cc[n+](C)c2)c1 [QT118, 1,11-Bis-(3-methylimidazolium-1-yl)undecane diiodide]",6885
17,"CCC[n+]1ccn(CCCCCCCCCCCCn2cc[n+](CCC)c2)c1 [QT119, 1,12-Bis(3-propylimidazolium-1-yl)dodecane diiodide]",97500
18,"C[n+]1ccn(CCCOc2ccc(OCCCn3cc[n+](C)c3)cc2)c1 [QT123, 1,4-Bis[3-(3-methylimidazolium-1-yl)propoxy]benzene diiodide]",2511

# Source: US8632914B2, “Triazolium and imidazolium salts and uses thereof” (University Health Network, priority 2008, dated 2014)
